In this assay the target is PrTX-III (piratoxin-III), D49 phospholipase A2 (Bothrops pirajai, UniProt P58464). The assay can be described thus: chromogenic PLA2 assay, absorbance at […] nm. The following applies: 4-nitro-3-octanoyloxy-benzoic acid substrate, 37°C.

Sequences of proteins named here, by UniProt entry; tags and fusion partners are left off. A change or cut given only in a name is not applied to a line headed by its entry.
UniProt P58464: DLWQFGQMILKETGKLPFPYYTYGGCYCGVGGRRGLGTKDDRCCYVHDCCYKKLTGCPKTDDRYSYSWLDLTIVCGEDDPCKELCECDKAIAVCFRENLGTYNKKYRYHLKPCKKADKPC

By IC50 is commonly meant the point on the concentration scale where inhibition reaches its midpoint. A high value points to weaker potency in that assay.

As to `O=C(CBr)c1ccc(Br)cc1`, the “inhibition of Vo at 425 nm” value is given as “p-BPB showed only a marginal inhibition of PrTX-III catalytic active”.

Take harpalycin 2: the IC50 (20 μg enzyme, DMSO 1%, unit contradictory in the paper: abstract μg/mL, b38 μg per well) stood at 11.34 ± 0.28 µg/mL.

The values above are taken from article PMC3520877, “Harpalycin 2 inhibits the enzymatic and platelet aggregation activities of PrTX-III, a D49 phospholipase A2 from Bothrops pirajai venom” (2012).
